Measurements reported in PubChem BioAssay AID1259414 (Drosophila RNAi Screening Center, 2018).

- Test: 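Genome-wide screen for host control of endosymbiont load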 (primary screen)
- System: Drosophila JW18 cells infected with Wolbachia
- Reagents: long dsRNA against Drosophila genes, 0.25 µg dsRNA per well of a 384-well plate
- Time to read-out: 5 days
- Treatment: cells persistently infected with Wolbachia before knock-down; no added drug
- Detection: 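Imaged fluorescence in situ signal for Wolbachia 23S rRNA per DAPI-counted host cell, given as a robust z-score within each plate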
- Direction: Wolbachia per cell robust z: higher = more Wolbachia per host cell than the plate typical
- Active means: 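Active if absolute robust z reaches 1.5 in two or more of three replicates, leaving out multi- or no-target dsRNAs, genes unexpressed in JW18 and A1 wells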
The screen tested about 24,000 reagents; this is an unselected part of those with a known target gene and a result. Of all reagents, about 1,210 (5%) got an active call. 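Inactive calls also include excluded dsRNAs with several or no targets, genes unexpressed in JW18, and well A1, regardless of score.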 Unmarked entries are inactive. The numbers tell different reagents against one gene apart. A plus sign joins genes that one reagent is predicted to hit.

gene,reagent no.,"Wolbachia per cell robust z, rep 1","Wolbachia per cell robust z, rep 2","Wolbachia per cell robust z, rep 3"
CG7544,1,-0.536,-0.191,-0.436
Sesn (Sestrin),1,0.827,-2,-0.58
Sesn (Sestrin),2,-0.136,0.189,-6.05
Sesn (Sestrin),3,-1.37,-3.08,0.777
CG6769,1,-0.148,0.0961,0.0872
Polr1A (RNA polymerase I subunit A),1,-6,-0.644,1.15
CG32024,1,-0.816,-2.4,-0.835
CG13561,1,0.108,0.838,0.915
CG31998,1,-0.0714,0.977,-6.54
CG31998,2,-3,-1.17,0.898
Stip1 (Stress induced phosphoprotein 1),1,0.675 (active),-2.7,-4.67
CR33317 (pseudo),1,-0.25,1.02,0.881
cora (coracle),1,-0.299,-3.53,-0.461
cora (coracle),2,0.505,-0.775,-0.0131
cora (coracle),3,-2.4 (active),-0.692,-2.6
l(1)10Bb (lethal (1) 10Bb),1,2.45 (active),2.59,3.36
Obp47b + CG7741,1,0.403,-0.504,-0.404
CG34232,1,-1.49,1.25,-0.0953
CG13244,1,-0.62,-0.0188,-1.36
CG42690,1,-0.0381,0.0676,-1.86
Sas10 (Something about silencing 10),1,0.217,0.286,-0.265
Exo84 (Exocyst 84),1,2.02 (active),-0.348,2
"IleRS-m (Isoleucyl-tRNA synthetase, mitochondrial)",1,-0.394,0.00837,0.123
CG14591,1,-2.24,-2.98,-0.601
Gr2a (Gustatory receptor 2a),1,-1.75,0.44,0.522
phtm (phantom),1,0.452,-0.817,0.309
phtm (phantom),2,0.387,-0.332,-0.614
Cdc23 (Cell division cycle 23),1,-0.328,-1.01,0.0931

Ordered by “Wolbachia per cell robust z, rep 1” (descending): some entries from above.
gene,reagent no.,"Wolbachia per cell robust z, rep 1","Wolbachia per cell robust z, rep 2","Wolbachia per cell robust z, rep 3"
Sesn (Sestrin),2,-0.136,0.189,-6.05
CG6769,1,-0.148,0.0961,0.0872
Sesn (Sestrin),3,-1.37,-3.08,0.777
Polr1A (RNA polymerase I subunit A),1,-6,-0.644,1.15
